Six molecules from patent US20090060866A1, “PHOSPHADIAZINE HCV […] AND II” (published 2009) can be followed below.

Protein sequences, listed by entry. Tags and fused reporters are not part of them. Residues count along the entry.
UniProt O92972, 2420-3010 limits assumed: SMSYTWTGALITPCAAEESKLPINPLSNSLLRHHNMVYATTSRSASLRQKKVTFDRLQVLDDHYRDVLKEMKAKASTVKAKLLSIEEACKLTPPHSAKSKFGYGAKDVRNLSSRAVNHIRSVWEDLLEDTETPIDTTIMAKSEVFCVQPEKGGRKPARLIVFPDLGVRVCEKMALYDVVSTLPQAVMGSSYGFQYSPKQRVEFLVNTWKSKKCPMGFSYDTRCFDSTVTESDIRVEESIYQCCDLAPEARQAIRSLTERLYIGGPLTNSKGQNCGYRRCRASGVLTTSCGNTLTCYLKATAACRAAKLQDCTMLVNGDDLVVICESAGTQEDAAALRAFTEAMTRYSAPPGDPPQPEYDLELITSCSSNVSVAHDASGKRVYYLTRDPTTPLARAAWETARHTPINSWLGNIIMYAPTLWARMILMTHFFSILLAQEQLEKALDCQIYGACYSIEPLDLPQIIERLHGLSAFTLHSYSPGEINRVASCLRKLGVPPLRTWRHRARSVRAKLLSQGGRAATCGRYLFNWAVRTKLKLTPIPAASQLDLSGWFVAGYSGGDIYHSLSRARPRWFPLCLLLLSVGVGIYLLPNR

Where only a bound is given, the exact number is not on record here.

Data set [1] has as its target HCV genotype 1b polymerase (strain J4) (Hepatitis C virus genotype 1b, UniProt O92972). In words: HCV polymerase assay. To be noted: 50 nM HCV genotype 1b polymerase, 35° C., 60 min, BrUTP incorporation ELISA. In general terms: An ELISA detects its analyte on a solid surface through an enzyme-linked reagent.
Data set [2] relates to Huh-7 cells containing HCV Con1 subgenomic replicon (GS4.1 cells). Description: HCV replicon assay (NS4A ELISA). The following applies: 72 hr, NS4A protein ELISA.
For data set [3] the test system is unchanged. Description: CC50 reported with the HCV replicon assay. To be noted: Table 1. Background: Replicon systems follow genome replication, usually without infectious particles.

The term IC50 denotes the point on the concentration scale where inhibition reaches its midpoint. A word on the EC50: it is the concentration needed to bring the measured effect to its halfway point. Higher therefore signals weaker potency. Broadly, the CC50 is the concentration giving 50% cytotoxicity. Lower therefore signals greater toxicity to the cells. In turn, `CS(=O)(=O)Nc1ccc2c(c1)P(=O)(O)N=C(c1c(O)c3cc(F)ccc3n(CCC3CC3)c1=O)N2` gave an IC50 in data set [1] of less than 0.1 µM. This molecule came in with a half-maximal effective concentration (EC50) in data set [2] of 0.1 to 10 µM. In data set [3], this molecule had a CC50 of more than 10 µM.

`COP1(=O)N=C(c2c(O)c3cc(F)ccc3n(CCC3CC3)c2=O)Nc2ccccc21` (stereo not drawn) came in with a 50% inhibitory concentration (IC50) in data set [1] of 0.1 to 10 µM. The EC50 in data set [2] was 0.1 to 10 µM. The molecule further came in with a CC50 in data set [3] of more than 10 µM.

In the case of `O=c1c(C2=NP(=O)(O)c3ccccc3N2)c(O)c2cc(F)ccc2n1CCC1CC1`, the IC50 in data set [1] was 0.1 to 10 µM. In data set [2], the EC50 is 0.1 to 10 µM. Moreover, in data set [3], the CC50 is more than 10 µM.

In data set [1], `CCOP1(=O)N=C(c2c(O)c3cc(F)ccc3n(CCC3CC3)c2=O)Nc2ccccc21` (stereo not drawn) returned a concentration for half-maximal inhibition (IC50) of more than 10 µM. In data set [2], this molecule displayed a concentration for a half-maximal effect (EC50) of more than 10 µM. This molecule showed a CC50 in data set [3] of more than 10 µM.

`CCOP1(=O)N=C(c2c(O)c3cc(F)ccc3n(CCC3CC3)c2=O)Nc2ccc(NS(C)(=O)=O)cc21` (stereo not drawn) returned an IC50 in data set [1] of 0.1 to 10 µM. Moreover, the concentration giving a half-maximal response (EC50) in data set [2] lay in the range of 0.1 to 10 µM. In data set [3], this molecule gave a half-maximal cytotoxic concentration (CC50) of more than 10 µM.

In the case of `COP1(=O)N=C(c2c(O)c3cc(F)ccc3n(CCC3CC3)c2=O)Nc2ccc(NS(C)(=O)=O)cc21` (stereo not drawn), the 50% inhibitory concentration (IC50) in data set [1] was less than 0.1 µM. For the same molecule, the EC50 in data set [2] was 0.1 to 10 µM. In data set [3], this molecule gave a half-maximal cytotoxic concentration (CC50) of more than 10 µM.
